Laboratory results: PMC11267572, “A Repurposed Drug Interferes with Nucleic Acid to Inhibit the Dual Activities of Coronavirus Nsp13”

Biological target: Nsp13 WT (SARS-CoV-2, UniProt P0DTD1 5325-5925)
Assay: fluorescence polarization; 100 nM probe; no ATP stated
Details: protein: recombinant; label: 5' fluorescein on strand 1

B1: duplex-FL (dsDNA)
DNA 1: CCTCGTAGGTACGCATGGATCCTCT
DNA 2: GCTTGCATGCCTGCAGGTGCACTCTAGAGGATCCATGCGTACCTACGAGG
In the case of B1, the Kd is reported as ~79 nM.
